# Where a chain is given by its changes, count along the chain named. Human monoclonal antibodies against the spike receptor-binding domain (heavy:light variable regions). IC50 against pseudoviruses bearing the spike of naturally observed variants; lower = stronger; >10 µg/ml means not reached at the top dose. No active / inactive call. The stated detection limit is 0.0005 µg/ml; values near or below 0.001 µg/ml lie at the floor of the assay.
# B1: BD55-6247 (protein)
# chain 1: EVQLVESGGGLVQPGGSLRLSCAASRFKFSSYWMTWVRQAPGKGLECVANIRQDGGEKYYVDSVKGRFTISRDNAKNSLYLQMNSLRAEDTAVYYCAREYRVSGYDILTGYNGISYYMDVWGKGTTVTVSS
# chain 2: QSVLTQPPSVSAAPGQKVTISCSGSSSNIGNHYVSWYRQLPGTAPKLLINDNNKRPSGIPDRFSGSKSGTSATLDITGLQTGDEADYYCGTWDSSLSVVVFGGGTKLTVL
# B2: BD55-6248 (protein)
# chain 1: QVQLVQSGAEVKKPGSSVKVSCKASGDTVSAYGISWVRQAPGQGLEWMGRIIPILGRANYAQNFQGRVTITADTSTSTAYMELSSLRSEDTAVYFCARDLLNAVTTSESPPVGIWGQGTLVTVSS
# chain 2: DIVMTQSPDSLAVSLGERATINCKSSQSVLYTSNNKNYLAWYQQKPGQPPKLLIYWASTRESGVPDRFSGSGSGTDFTLTISSLQAEDVAVYYCQQYYSAPLTFGPGTKVDIK
# B3: BD55-6251 (protein)
# chain 1: QLQLVESGGGVVQPGRSLRLSCAASGFIFSDFDMHWVRQAPGKGLEWMAVIWYDGSEQYYGDSVKGRFTISRDNSRNTLYLQMNGLRAEDTAMYYCARLTTERKYSGYDHVSQEPNIWGHGTLVAVSS
# chain 2: SSELTQDPAVSVALGQTVRITCQGDGLRSYYATWSQQKPGQAPVVVIYGKNKRPSGIPDRFSGSDSGDTAYLTITGAQAEDEADYYCSSRDRGEYQYVFGTGTKVTVL
# B4: BD55-6252 (protein)
# chain 1: EVQLVQSGAEVKKPGESLRISCKGSGYSFSNFWITWVRQMPGKGPEWIGRIYPSDSYTTYNPSFQGHVTISADKSISTAYLQWSSLKASDTAMYYCASQQLERMGYYYMDVWGEGTTVTVSS
# chain 2: DIQMTQSPSSLSASIGDRVTITCRASQTISNYLNWYQQKPGKAPKLLIYEASTLQSGVPSRFGGSGSGTDFTLTISSLQPEDFATYYCQQSYSTPTWTFGQGTKVEIK
# B5: BD55-6253 (protein)
# chain 1: QGQLQESGPGLVRPSETLSLTCAVSGDSSSNYYWTWIRQPPGKGLEWVGHVHYTGTTNYSPSLKRRVTISLDTSKNQFSLKLSSVTAADTAVYYCTRAPWLGYYHPVGAFDIWGQGTTVTVSS
# chain 2: B2 chain 2 with R18G, T32N, I54L, E61D, A100P, P106G, D111E
# B6: BD55-6259 (protein)
# chain 1: QVHLVQSGAEVKKPGASVKLSCKTSGNTFSTNYMHWVRQAPGQGLEWMGFINPTSGTTDYAQKFQGRVTVTSDTSTSTIYMELTSLTSEDTAIYYCARESSGVMVAENHFDYWGQGTRVTVSS
# chain 2: EVVLTQSPGILSLSLGERATLSCRASQHVSSNYLAWYQQKSGQAPRLLIYGASTRATGIPDRFSGSGSGTHFTLTISRLEPEDFAVYYCQQYYTSPRTFGQGTRMEIK
# Key:
# Assay in all cases: pseudovirus neutralization IC50; higher = weaker neutralization
# [1] = molecular target: SARS-CoV-2 Omicron BA.1 spike pseudovirus
# Procedure: (§1)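 Single-round VSV luciferase pseudovirus mixed with antibody dilutions for 1 h and put on Huh-7 cells for about a day; IC50 from the dose curve.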
# [2] = molecular target: SARS-CoV-2 Omicron BA.2 spike pseudovirus
# Procedure: as §1
# [3] = molecular target: SARS-CoV-2 Omicron BA.2.75 spike pseudovirus
# Procedure: as §1
# [4] = molecular target: SARS-CoV-2 Omicron BA.5 spike pseudovirus
# Procedure: as §1
# [5] = molecular target: SARS-CoV-2 Omicron BQ.1.1 spike pseudovirus
# Procedure: as §1
# [6] = molecular target: SARS-CoV-2 Omicron XBB spike pseudovirus
# Procedure: as §1
# [7] = molecular target: SARS-CoV-2 early D614G spike pseudovirus
# Procedure: as §1
Binder,pseudovirus neutralization IC50 [1],pseudovirus neutralization IC50 [2],pseudovirus neutralization IC50 [3],pseudovirus neutralization IC50 [4],pseudovirus neutralization IC50 [5],pseudovirus neutralization IC50 [6],pseudovirus neutralization IC50 [7]
B1,> 10 µg/mL,> 10 µg/mL,> 10 µg/mL,> 10 µg/mL,> 10 µg/mL,> 10 µg/mL,> 10 µg/mL
B2,> 10 µg/mL,> 10 µg/mL,> 10 µg/mL,> 10 µg/mL,> 10 µg/mL,> 10 µg/mL,> 10 µg/mL
B3,> 10 µg/mL,> 10 µg/mL,> 10 µg/mL,> 10 µg/mL,> 10 µg/mL,> 10 µg/mL,0.0874 µg/mL
B4,> 10 µg/mL,> 10 µg/mL,> 10 µg/mL,> 10 µg/mL,> 10 µg/mL,> 10 µg/mL,> 10 µg/mL
B5,> 10 µg/mL,> 10 µg/mL,> 10 µg/mL,> 10 µg/mL,> 10 µg/mL,> 10 µg/mL,> 10 µg/mL
B6,> 10 µg/mL,> 10 µg/mL,> 10 µg/mL,> 10 µg/mL,> 10 µg/mL,> 10 µg/mL,> 10 µg/mL
